Experimental data from US20030191083.
The exact form of at least one protein or probe is not confirmed.

Amino acid sequences for entries named in this document (tags omitted). A change or cut given only in a name is not applied to a line headed by its entry.
UniProt A8YYS2: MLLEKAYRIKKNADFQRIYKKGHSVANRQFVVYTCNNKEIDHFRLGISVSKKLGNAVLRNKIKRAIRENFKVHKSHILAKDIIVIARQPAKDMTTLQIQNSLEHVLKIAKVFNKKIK

Target: T1, RNase P protein (SPP, SP protein) (Staphylococcus aureus) (UniProt A8YYS2)
T1 sequence: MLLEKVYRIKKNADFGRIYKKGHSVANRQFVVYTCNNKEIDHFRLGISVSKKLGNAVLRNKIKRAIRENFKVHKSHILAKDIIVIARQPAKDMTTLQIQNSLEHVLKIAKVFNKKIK
Test: EMSA
Conditions: gel shift showed specific binding; purified recombinant protein; label: 3'-end label

Question: Does “GUUCUGAUAUUUUGGGUAAUCGCUAUAUUAUAUAGAGGAAAGUCCAUGCUCACACAGUCUGAGAUGAUUGUAGUGUUCGUGCUUGAUGAAACAAUAAAUCAAGGCAUUAAUUUGACGGCAAUGAAAUAUCCUAAGUCUUUCGAUAUGGAUAGAGUAAUUUGAAAGUGCCACAGUGACGUAGCUUUUAUAGAAAUAUAAAAGGUGGAACGCGGUAAACCCCUCGAGUGAGCAAUCCAAAUUUGGUAGGAGCACUUGUUUAACGGAAUUCAACGUAUAAACGAGACACACUUCGCGAAAUGAAGUGGUGUACGACAGAUGGUUAUCACCUGAGUACCAGUGUGACUAGUGCACGUGAUGAGUACGAUGGAACAGAACAUGGCUUAUAGAAAUAUCACUACUA [S. aureus RNase P RNA (SP RNA)]” bind?
Answer: binds
